The values below are quoted from earlier work in PMC4410398, “Influence of Drug Resistance Mutations on the Activity of HIV-1 Subtypes A and B Integrases: a Comparative Study” (Acta Naturae, 2015).

The test system of data set [1] is HIV-1 subtype B (clone pNL4-3) carrying G118R. Also noted: method as in PMID 24710029. Particulars: cited from earlier work.
Data set [2] relates to HIV-1 subtype CRF02_A/G isolate carrying a G118R substitution in the IN gene. Also noted: method as in PMID 24710029. The conditions noted are these: HIV-1 subtype CRF02_A/G isolate carrying G118R in the IN gene; cited from earlier work.

With `COc1cc2c(cc1Cc1cccc(Cl)c1F)c(=O)c(C(=O)O)cn2[C@H](CO)C(C)C` [EVG, elvitegravir], the “FC (resistance)” value in data set [1] is 3.1; in data set [2], > 100.
